Compound potency records, mixed from different reports. Data source: NIAID ChemDB in PubChem.

Common to all: growth or infection tests; species: Candida albicans

Neighbouring rows are from separate reports. An empty or dashed field is not shown. MIC50, MIC90 and the like: level of inhibition, or share of isolates inhibited. ECn is the concentration giving n% inhibition of infection, replication or growth.

COC(=O)/C=C/c1ccccc1 ; endpoint: MIC ; result: 0.002 µg/mL
S=C(NCc1ccccc1)c1ccc[nH]c1=S ; endpoint: MIC ; result: 20 µg/mL
C[C@H]1[C@H](O)[C@@H](C)/C=C/C=C/C=C/C=C/C=C/C=C/C=C/[C@H](O[C@@H]2O[C@H](C)[C@@H](O)[C@H](N)[C@@H]2O)C[C@@H]2O[C@](O)(C[C@@H](O)C[C@@H](O)CC[C@H](O)[C@@H](O)C[C@@H](O)CC(=O)O[C@H]1C)C[C@H](O)[C@H]2C(=O)O ; strain or isolate: ATCC28838 ; endpoint: MIC ; result: 1.56 µg/mL
Cn1ccnc1C(CC(=O)O)c1nccn1C ; strain or isolate: ATCC 10231 ; endpoint: MIC ; setting: 48 h ; method: broth dilution ; result: >512 µg/mL
CCCCCOc1ccc(-c2ccc(-c3ccc(C(=O)N[C@H]4CCCNC(=O)C5C[C@H](N)CN5C(=O)C(CCCCN)NC(=O)C(CCc5ccc(O)cc5)NC(=O)C5C[C@@H](O)CN5C(=O)C(C(C)O)NC4=O)cc3)cc2)cc1 ; strain or isolate: ATCC 62376 ; endpoint: MIC ; result: 0.2 µg/mL
Cc1ccc(OC(C)c2n[nH]c(=S)n2C2CCCCC2)cc1 ; strain or isolate: NRRL Y-27077 ; endpoint: MIC ; result: 0.5 µg/mL
CCCCCCNC(=O)c1ccc[nH]c1=S ; endpoint: MIC ; result: 10 µg/mL
CCSSc1ssc(=S)c1OC ; strain or isolate: Clinical isolate 00-622 ; endpoint: MIC ; result: <0.13 µg/mL
COC(=O)c1ccc2c(ccn2C)c1O ; endpoint: MIC ; result: >50 µg/mL
Cn1cnc(-c2ccccc2)c1 ; strain or isolate: ATCC 10231 ; endpoint: MIC ; setting: 24 h ; method: broth dilution ; result: >512 µg/mL
COc1ccc2cc3[n+](cc2c1OC)CCc1cc2c(cc1-3)OCO2 ; strain or isolate: ATCC11651 ; endpoint: MIC ; result: 250 µg/mL
CN(C)C(=O)/C=C/c1ccccc1 ; endpoint: MIC ; result: 0.001 µg/mL
CCOC(=O)Cc1csc(NC(=O)CSc2nnc(C(C)Oc3ccc(Cl)cc3)n2-c2ccccc2)n1 ; strain or isolate: Clinical isolates ; endpoint: MIC ; result: 8 µg/mL
Cc1c(Sc2ccccc2)[n+](=O)c2cc(Cl)ccc2n1[O-] ; strain or isolate: Clinical isolate 13 ; endpoint: MIC ; result: 15.6 µg/mL
S=c1cc(SCc2ccccc2)ss1 ; strain or isolate: ATCC 10231 ; endpoint: MIC ; result: 125 µg/mL
CC(C)CCCCCCCCCC1CC(=O)NCC(=O)N[C@@H](CCCCN)C(=O)N[C@@H](C(C)C)C(=O)N1 ; strain or isolate: ATCC 10231 ; endpoint: MIC ; result: 2.5 µg/mL
CCCCCCCCCC(=O)C(C)C(=O)N[C@@H](CC(C)C)C(=O)N[C@H](C)C(=O)N1CCC[C@H]1C(=O)N[C@H](C(=O)N[C@@H](CC)C(=O)NCCO)C(C)C ; strain or isolate: Day185 ; endpoint: MIC ; method: broth dilution ; result: >200 µM
C[C@@H](N1CCN(Cc2cn(Cc3ccc(F)cc3)c3c(F)cccc23)CC1)[C@](O)(Cn1cncn1)c1ccc(F)cc1F ; strain or isolate: ATCC MYA-1003 ; endpoint: MIC80 ; method: resazurin ; result: 16 µg/mL
CC(=O)Oc1c(Cl)cccc1C(=O)Nc1ccc(Cl)c(Cl)c1 ; strain or isolate: ATCC 44859 ; endpoint: MIC ; result: 3.91 µg/mL
O=[n+]1c(Sc2ccccc2)c(CBr)n([O-])c2ccccc21 ; strain or isolate: Clinical isolate 13 ; endpoint: MIC ; result: 15.6 µg/mL
COc1ccc(C[C@H](N)C(=O)N[C@H]2[C@@H](O)[C@H](n3cnc4c(N)ncnc43)O[C@@H]2C(=O)O)cc1 ; strain or isolate: FP-618 ; endpoint: MIC ; result: 0.8 µg/mL
CC(Oc1ccccc1)c1nnc(SCC(=O)Nc2nccs2)n1C1CCCCC1 ; strain or isolate: NRRL Y-27077 ; endpoint: MIC ; result: >16 µg/mL
CC(C)CCOC(=O)/C=C/c1ccccc1 ; endpoint: MIC ; result: 0.002 µg/mL
c1ccc(-c2c[nH]cc2C(c2cccs2)n2ccnc2)cc1 ; strain or isolate: 33 strains ; endpoint: Mean MIC ; result: >256 µg/mL
CN(CCCC#CC(C)(C)C)c1cccc2c1CCC(=O)N2 ; strain or isolate: Clinical isolate 22 ; endpoint: MIC ; result: 31.5 µg/mL
CCCCCCCCCC(=O)[C@@H](C)C(=O)N[C@@H](CC(C)C)C(=O)N[C@H](C)C(=O)N1CCC[C@H]1C(=O)N[C@H](C(=O)N[C@H]1CSCCNC1=O)[C@@H](C)CC ; strain or isolate: Day185 ; endpoint: EC50 ; method: broth dilution ; result: 9.1 µM
Cn1ccc2c3oc(-c4ccccc4)c(O)c(=O)c3ccc21 ; endpoint: MIC ; result: >50 µg/mL
Cc1c(Sc2ccccc2)[n+](=O)c2cc(C(F)(F)F)ccc2n1[O-] ; strain or isolate: Clinical isolate 22 ; endpoint: MIC ; result: 7.8 µg/mL
O=C(O)/C=C/c1cccc([N+](=O)[O-])c1 ; endpoint: MIC ; result: 0.002 µg/mL
CC(=O)Oc1c(Cl)cccc1C(=O)Nc1ccc(Cl)cc1 ; strain or isolate: ATCC 44859 ; endpoint: MIC ; result: 15.63 µg/mL
C[C@@H](N1CCN(Cc2cn(Cc3ccc(Cl)cc3Cl)c3ccc(C#N)cc23)CC1)[C@](O)(Cn1cncn1)c1ccc(F)cc1F ; strain or isolate: ATCC MYA-1003 ; endpoint: MIC80 ; method: resazurin ; result: >128 µg/mL
CC(=O)Oc1c(Cl)cccc1C(=O)Nc1ccc(C(F)(F)F)cc1 ; strain or isolate: ATCC 44859 ; endpoint: MIC ; result: 7.81 µg/mL
S=c1cc(Sc2ccccc2)ss1 ; strain or isolate: ATCC 10231 ; endpoint: MIC ; result: 6.25 µg/mL
NS(=O)(=O)c1ccc(Nc2ccnc(Nc3ccc(S(N)(=O)=O)cc3)n2)cc1 ; endpoint: MIC50 ; result: 1.5 µg/mL
Cn1ccc2c3oc(-c4ccccc4)cc(=O)c3ccc21 ; endpoint: MIC ; result: 25 µg/mL
O=C(NCCCc1ccccc1)c1ccc[nH]c1=S ; endpoint: MIC ; result: 5 µg/mL
O=C(/C=C/c1ccccc1)N1CCOCC1 ; endpoint: MIC ; result: 0.002 µg/mL
COc1ccc(Nc2ccnc(Nc3ccc(OC)cc3)n2)cc1 ; endpoint: MIC50 ; result: 8 µg/mL
CCC(C)CCCCCCC1CC(=O)NCC(=O)N[C@@H](CCCN)C(=O)N[C@@H](C(C)CC)C(=O)N1 ; strain or isolate: IFM 40009 ; endpoint: MIC ; result: 2.5 µg/mL
C[n+]1c[nH]cc1-c1ccccc1 ; strain or isolate: ATCC 10231 ; endpoint: MIC ; setting: 48 h ; method: broth dilution ; result: 500 µg/mL
CCCCCn1sc2ncccc2c1=O ; endpoint: MIC ; result: 20 µg/mL
COc1ccc(C(=O)CC(=O)c2ccc3sccc3c2OC)cc1 ; endpoint: MIC ; result: 12.5 µg/mL
CCCCCC ; endpoint: MIC80 ; result: 250 µg/mL
CC(=O)c1ccc2sccc2c1O ; endpoint: MIC ; result: 50 µg/mL
c1ccc(-c2c[nH]cc2C(c2cccc3ccccc23)n2ccnc2)cc1 ; strain or isolate: 33 strains ; endpoint: MIC50 ; result: 2 µg/mL
Clc1ccc(Nc2ccnc(Nc3ccc(Cl)cc3)n2)cc1 ; endpoint: MIC50 ; result: 0.84 µg/mL
CCCCCCCCOc1ccc(N2CCN(c3ccc(C(=O)N[C@H]4CCCNC(=O)C5C[C@H](N)CN5C(=O)C(C(C)O)NC(=O)C(Cc5ccc(CO)cc5)NC(=O)C5CCCN5C(=O)C(C(C)O)NC4=O)cc3)CC2)cc1 ; strain or isolate: ATCC 10231 ; endpoint: MIC ; result: 1.56 µg/mL
c1ccc(-c2ccc(C(c3c[nH]cc3-c3ccccc3)n3ccnc3)cc2)cc1 ; strain or isolate: 33 strains ; endpoint: MIC50 ; result: 12 µg/mL
CCCCCOc1ccc(-c2ccc(-c3ccc(C(=O)N[C@H]4CCCNC(=O)[C@@H]5C[C@H](N)CN5C(=O)CNC(=O)C(CCc5ccc(O)cc5)NC(=O)[C@@H]5C[C@@H](O)CN5C(=O)[C@H]([C@@H](C)O)NC4=O)cc3)cc2)cc1 ; strain or isolate: ATCC 10231 ; endpoint: MIC ; result: 0.39 µg/mL
C[C@@H](N1CCN(Cc2cn(Cc3ccc(Cl)cc3)c3c(Cl)cccc23)CC1)[C@](O)(Cn1cncn1)c1ccc(F)cc1F ; strain or isolate: ATCC MYA-1003 ; endpoint: MIC80 ; method: resazurin ; result: >128 µg/mL
c1ccc(-c2c[nH]cc2C(c2ccc3ccccc3c2)n2ccnc2)cc1 ; strain or isolate: 33 strains ; endpoint: Mean MIC ; result: 12.49 µg/mL
CCCSc1cc(=S)ss1 ; strain or isolate: Clinical isolate 00-622 ; endpoint: MIC ; result: 4 µg/mL
CCCCCOc1ccc(-c2ccc(-c3ccc(C(=O)N[C@H]4CCCNC(=O)C5C[C@H](N)CN5C(=O)C(C)NC(=O)C(CCc5ccc(O)cc5)NC(=O)C5C[C@@H](O)CN5C(=O)C(C(C)O)NC4=O)cc3)cc2)cc1 ; strain or isolate: ATCC CCH442 ; endpoint: MIC ; result: 0.2 µg/mL
C[C@@H](N1CCN(Cc2cn(Cc3ccc(Cl)cc3)c3c(F)cccc23)CC1)[C@](O)(Cn1cncn1)c1ccc(F)cc1F ; strain or isolate: ATCC 64548 ; endpoint: MIC80 ; method: resazurin ; result: 0.125 µg/mL
CCCNC(=O)c1ccc[nH]c1=S ; endpoint: MIC ; result: 15 µg/mL
CC(=O)Oc1cc(Cl)ccc1C(=O)Nc1ccc(C(F)(F)F)cc1 ; strain or isolate: ATCC 44859 ; endpoint: MIC ; result: 7.81 µg/mL
Cn1ccnc1Cc1nccn1C ; strain or isolate: ATCC 10231 ; endpoint: MIC ; setting: 48 h ; method: broth dilution ; result: >512 µg/mL
Cn1cc(-c2ccccc2)c(C(c2ccc3ccccc3c2)n2ccnc2)c1 ; strain or isolate: 33 strains ; endpoint: Mean MIC ; result: 190 µg/mL
ClCCl ; endpoint: MIC80 ; result: >250 µg/mL
Cn1cc(-c2ccccc2)c(C(c2ccc(-c3ccccc3)cc2)n2ccnc2)c1 ; strain or isolate: 33 strains ; endpoint: Mean MIC ; result: 173 µg/mL
CCCCn1sc2cc(C(F)(F)F)ccc2c1=O ; endpoint: MIC ; result: 7.5 µg/mL
CC(Oc1ccc(Cl)cc1)c1n[nH]c(=S)n1-c1ccccc1 ; strain or isolate: Clinical isolates ; endpoint: MIC ; result: >16 µg/mL
CCCCCCNC(=S)c1ccc[nH]c1=S ; endpoint: MIC ; result: 20 µg/mL
CCOC(=O)c1csc(NC(=O)CSc2nnc(C(C)Oc3ccccc3)n2-c2ccccc2)n1 ; strain or isolate: Clinical isolates ; endpoint: MIC ; result: >16 µg/mL
NC[C@@H]1O[C@H](O[C@H]2[C@@H](O)[C@H](O[C@@H]3[C@@H](O)[C@H](N)C[C@H](N)[C@H]3O[C@H]3O[C@H](CN)[C@@H](O)[C@H](O)[C@H]3N)O[C@@H]2CO)[C@H](N)[C@@H](O)[C@@H]1O ; endpoint: MIC50 ; result: 1.1 µg/mL
CC(=O)Oc1cc(Cl)ccc1C(=O)Nc1ccc(Cl)cc1 ; strain or isolate: ATCC 44859 ; endpoint: MIC ; result: 125 µg/mL
CCCCCOc1ccc(-c2ccc(-c3ccc(C(=O)N[C@H]4CCCNC(=O)C5C[C@H](NC(=O)OC)CN5C(=O)C(C(C)O)NC(=O)C(CCc5ccc(O)cc5)NC(=O)C5C[C@@H](O)CN5C(=O)C(C(C)O)NC4=O)cc3)cc2)cc1 ; strain or isolate: ATCC 62376 ; endpoint: MIC ; result: 0.39 µg/mL
CC(=O)c1ccc(Nc2ccnc(Nc3ccc(C(C)=O)cc3)n2)cc1 ; endpoint: MIC50 ; result: 6.6 µg/mL

A second listing of 4 rows from above:

structure	strain or isolate	endpoint	setting	method	result
S=C(NCc1ccccc1)c1ccc[nH]c1=S		MIC			20 µg/mL
O=C(O)/C=C/c1cccc([N+](=O)[O-])c1		MIC			0.002 µg/mL
COc1ccc(C[C@H](N)C(=O)N[C@H]2[C@@H](O)[C@H](n3cnc4c(N)ncnc43)O[C@@H]2C(=O)O)cc1	FP-618	MIC			0.8 µg/mL
O=C(/C=C/c1ccccc1)N1CCOCC1		MIC			0.002 µg/mL